Tested on: E. coli O157:H7

Q: Which “E. coli O157:H7 counts at 0 min” value does the source give for CC(=O)CCC(=O)O [0.5% levulinic acid (pH 2.6), levulinic acid] here?
A: The value was 7.0 log CFU/ml.

Q: What about the “E. coli O157:H7 counts at 1 min” value of the same compound?
A: The value was 6.7 log CFU/ml.

Q: What about the “E. coli O157:H7 counts at 2 min” value of the same compound?
A: The value was 6.8 log CFU/ml.

Q: And the “E. coli O157:H7 counts at 5 min” value?
A: The value was 6.7 log CFU/ml.

Q: What about the “E. coli O157:H7 counts at 10 min” value of the same compound?
A: The value was 6.9 log CFU/ml.

Q: What about the “E. coli O157:H7 counts at 20 min” value of the same compound?
A: The value was 6.8 log CFU/ml.

Q: What about the “E. coli O157:H7 counts at 30 min” value of the same compound?
A: Its value is 6.8 log CFU/ml.

Q: And the “E. coli O157:H7 counts at 60 min” value?
A: Its value is 6.4 log CFU/ml.

Q: How did the “E. coli O157:H7 counts at 0 min” value turn out when CCCCCCCCCCCCOS(=O)(=O)[O-].[Na+] [0.05% sodium dodecyl sulfate (pH 4.4), sodium dodecyl sulfate] was run?
A: Its value is 7.1 log CFU/ml.

Q: What about the “E. coli O157:H7 counts at 1 min” value of the same compound?
A: Its value is 6.9 log CFU/ml.

Q: What about the “E. coli O157:H7 counts at 2 min” value of the same compound?
A: Its value is 7.1 log CFU/ml.

Q: And the “E. coli O157:H7 counts at 5 min” value?
A: The value was 7.0 log CFU/ml.

Q: What about the “E. coli O157:H7 counts at 10 min” value of the same compound?
A: The value was 6.9 log CFU/ml.

Q: What about the “E. coli O157:H7 counts at 20 min” value of the same compound?
A: The value was 6.9 log CFU/ml.

Q: And the “E. coli O157:H7 counts at 30 min” value?
A: The value was 7.1 log CFU/ml.

Q: And the “E. coli O157:H7 counts at 60 min” value?
A: The value was 7.0 log CFU/ml.
